Measured values from several laboratories, pooled; numbers as filed in NIAID ChemDB.

Shared fields: growth or infection tests; agent: Candida albicans; endpoint: MIC

Conditions beyond the fields shown may differ between rows. An empty or dashed field is not shown.

{"compound": "C=CC[C@@H]1/C=C(/C)C[C@H](C)C[C@H](OC)[C@H]2O[C@@](O)(C(=O)C(=O)N3CCCC[C@H]3C(=O)O[C@H](/C(C)=C/[C@@H]3CC[C@@H](O)[C@H](OC)C3)[C@H](C)[C@@H](O)CC1=O)[C@H](C)C[C@@H]2OC", "strain or isolate": "YAG171 (genotype RBP1/RBP1)", "value": ">3.12 µg/mL"}
{"compound": "CC[C@H]1OC(=O)C=C2C1=CC1OC(=O)[C@@]3(C)CCC[C@@]2(C)[C@@H]13", "strain or isolate": "ATCC 90028", "value": "8 µg/mL"}
{"compound": "Cc1c(N2CCOCC2CN)c(F)cn2c(=O)c(C(=O)O)cc(C3CC3)c12.Cl", "strain or isolate": "CCH442", "value": ">100 µg/mL"}
{"compound": "O=c1ccc2cc(O)ccc2o1", "strain or isolate": "ATCC 14053", "value": "500 µg/mL"}
{"compound": "COc1ccc(CCC2(CCc3ccc(OC)c(OC)c3)CCCC3=C2CCN(C)C3)cc1OC", "strain or isolate": "C316", "value": "125 µg/mL"}
{"compound": "CNCC1COC2(CCN(c3c(F)cn4c(=O)c(C(=O)O)cc(C5CC5)c4c3C)CC2)O1.Cl", "strain or isolate": "CCH442", "value": ">100 µg/mL"}
{"compound": "CN1CCC2=C(CCCC2CCc2ccccc2)C1", "strain or isolate": "2381E", "value": "31 µg/mL"}
{"compound": "COCOC1CCN(c2c(F)cn3c(=O)c(C(=O)O)cc(C4CC4)c3c2C)CC1", "strain or isolate": "CCH442", "value": ">100 µg/mL"}
{"compound": "C[C@@]12CCC[C@]3(C)C4=CC(=O)OC[C@]45O[C@@H]5C(OC1=O)[C@@H]23", "strain or isolate": "ATCC 90029", "value": "32 µg/mL"}
{"compound": "Cc1c(N2CC(N)C2)c(F)cn2c(=O)c(C(=O)O)cc(C3CC3)c12", "strain or isolate": "CCH442", "value": ">100 µg/mL"}
{"compound": "Cc1c(N2C[C@@H](N)C[C@@H]2C)c(F)cn2c(=O)c(C(=O)O)cc(C3CC3)c12.Cl", "strain or isolate": "CCH442", "value": ">100 µg/mL"}
{"compound": "COc1cc(O)c2c(c1)C(=O)c1c(cc3c(c1O)-c1c(cc(C)c(C(=O)N[C@H](CO)C(=O)O)c1O)[C@H](O[C@@H]1O[C@H](C)[C@H](O)[C@H](O)[C@H]1O)[C@H]3O)C2=O", "strain or isolate": "A9540", "value": "3.1 µg/mL"}
{"compound": "Cc1c(N2CCC(C3(N)CC3)C2)c(F)cn2c(=O)c(C(=O)O)cc(C3CC3)c12.Cl", "strain or isolate": "CCH442", "value": "50 µg/mL"}
{"compound": "Cc1ccc2ccc(=O)oc2c1", "strain or isolate": "ATCC 14053", "value": "1000 µg/mL"}
{"compound": "C[C@@H]1[C@H](O)[C@@H](C)/C=C/C=C/CC/C=C/C=C/C=C/C=C/C(O[C@H]2O[C@H](C)[C@@H](O)[C@H](N)[C@@H]2O)CC2O[C@](O)(CC(O)C(O)CCC(O)CC(O)CC(O)CC(=O)O[C@H]1C)CC(O)C2C(=O)O", "strain or isolate": "MTCC 3958", "value": "150 µg/mL"}
{"compound": "Clc1cccc(Cl)c1CCC1CCCc2cnccc21", "strain or isolate": "C316", "value": ">125 µg/mL"}
{"compound": "CC1=C(N2CC3CC3(N)C2)C(F)=CN2C(=O)C(C(=O)O)=CC(C3CC3)C12", "strain or isolate": "CCH442", "value": ">100 µg/mL"}
{"compound": "c1ccc(CC2CCCc3cnccc32)cc1", "strain or isolate": "2381E", "value": "31 µg/mL"}
{"compound": "C[C@H]1[C@H](O)[C@@H](C)/C=C/C=C/C=C/C=C/C=C/C=C/C=C/[C@H](O[C@@H]2O[C@H](C)[C@@H](O)[C@H](N)[C@@H]2O)C[C@@H]2O[C@](O)(C[C@@H](O)C[C@@H](O)CC[C@H](O)[C@@H](O)C[C@@H](O)CC(=O)O[C@H]1C)C[C@H](O)[C@H]2C(=O)O", "strain or isolate": "ATCC 90028", "value": "0.03 µg/mL"}
{"compound": "CN1CCC2=C(CCCC2CCc2ccc(Cl)cc2)C1", "strain or isolate": "2381E", "value": "4 µg/mL"}
{"compound": "O=Cc1ccc2oc(=O)ccc2c1", "strain or isolate": "ATCC 14053", "value": "500 µg/mL"}
{"compound": "C[C@@H](c1nc(-c2ccc(C#N)cc2)cs1)[C@](O)(Cn1cnnc1)c1ccc(F)cc1F", "strain or isolate": "Darlington", "value": "8 µg/mL"}
{"compound": "C=CC(C)(C)c1cc2cc3ccoc3cc2oc1=O", "strain or isolate": "ATCC 14053", "value": "500 µg/mL"}
{"compound": "CC1=C(N2C[C@H](CF)[C@@H](N)C2)C(F)=CN2C(=O)C(C(=O)O)=CC(C3CC3)C12", "strain or isolate": "CCH442", "value": ">100 µg/mL"}
{"compound": "CN1CCC2=C(CCCC2CCc2ccccc2Cl)C1", "strain or isolate": "C316", "value": "16 µg/mL"}
{"compound": "Cc1c(N2C[C@@H]3C(N)[C@@H]3C2)c(F)cn2c(=O)c(C(=O)O)cc(C3CC3)c12.Cl", "strain or isolate": "CCH442", "value": ">100 µg/mL"}
{"compound": "CC1(C)C=Cc2cc3ccc(=O)oc3cc2O1", "strain or isolate": "ATCC 14053", "value": "500 µg/mL"}
{"compound": "CC1=C(N2CCC3(CC3N)C2)C(F)=CN2C(=O)C(C(=O)O)=CC(C3CC3)C12", "strain or isolate": "CCH442", "value": ">100 µg/mL"}
{"compound": "C[C@@H]1C[C@@H]([C@H](O)CC2CC(=O)NC(=O)C2)C(=O)[C@@H](C)C1", "strain or isolate": "Isolate 4", "value": "0.53 µM"}
{"compound": "Cc1c(N2CC(CO)C2)c(F)cn2c(=O)c(C(=O)O)cc(C3CC3)c12", "strain or isolate": "CCH442", "value": ">100 µg/mL"}
{"compound": "OC(Cn1cncn1)(Cn1cncn1)c1ccc(F)cc1F", "strain or isolate": "YL 317", "read by": "broth dilution", "value": "256 µg/mL"}
{"compound": "CN1CCC2=C(CCCC2CCc2ccc(Cl)c(Cl)c2)C1", "strain or isolate": "2402E", "value": "31 µg/mL"}
{"compound": "COC[C@@H](N)[C@@H]1CCN(c2c(F)cn3c(=O)c(C(=O)O)cc(C4CC4)c3c2C)C1.Cl", "strain or isolate": "CCH442", "value": "100 µg/mL"}
{"compound": "Brc1ccc(CCC2CCCc3cnccc32)cc1", "strain or isolate": "C316", "value": "31 µg/mL"}
{"compound": "Cc1c(N2CCCC(n3cccc3)C2)c(F)cn2c(=O)c(C(=O)O)cc(C3CC3)c12", "strain or isolate": "CCH442", "value": ">100 µg/mL"}

For reference, 2 entries again:

compound	strain or isolate	read by	value
C[C@H]1[C@H](O)[C@@H](C)/C=C/C=C/C=C/C=C/C=C/C=C/C=C/[C@H](O[C@@H]2O[C@H](C)[C@@H](O)[C@H](N)[C@@H]2O)C[C@@H]2O[C@](O)(C[C@@H](O)C[C@@H](O)CC[C@H](O)[C@@H](O)C[C@@H](O)CC(=O)O[C@H]1C)C[C@H](O)[C@H]2C(=O)O	ATCC 90028	-	0.03 µg/mL
C=CC(C)(C)c1cc2cc3ccoc3cc2oc1=O	ATCC 14053	-	500 µg/mL